# Experimental data published in article PMC8694051 (Proceedings of the National Academy of Sciences of the …, 2021).
# Columns and labels:
# Caspase 3 = target: T1, Caspase 3 (Homo sapiens, UniProt P42574); assay: Protease profiling panel, 10-dose IC50; assay type: biochemical
# T1 sequence (P42574 29-277): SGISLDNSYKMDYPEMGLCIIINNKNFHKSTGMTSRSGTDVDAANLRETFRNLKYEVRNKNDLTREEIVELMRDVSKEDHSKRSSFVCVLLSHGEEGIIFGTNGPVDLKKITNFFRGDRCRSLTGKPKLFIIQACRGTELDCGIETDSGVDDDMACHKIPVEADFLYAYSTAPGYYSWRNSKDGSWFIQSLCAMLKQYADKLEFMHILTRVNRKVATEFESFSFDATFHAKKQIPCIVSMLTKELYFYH
# Elastase = target: T2, Elastase (Homo sapiens, UniProt P08246); assay: Protease profiling panel, 10-dose IC50; assay type: biochemical
# T2 sequence (P08246 30-267): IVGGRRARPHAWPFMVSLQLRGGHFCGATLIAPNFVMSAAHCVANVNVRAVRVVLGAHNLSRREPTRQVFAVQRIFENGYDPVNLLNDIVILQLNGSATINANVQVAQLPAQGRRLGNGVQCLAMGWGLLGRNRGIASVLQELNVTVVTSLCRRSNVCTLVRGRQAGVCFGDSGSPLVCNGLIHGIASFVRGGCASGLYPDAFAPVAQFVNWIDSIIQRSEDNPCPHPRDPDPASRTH
SMILES,pIC50 (Caspase 3),pIC50 (Elastase)
CC(=O)N[C@@H](CC(=O)O)C(=O)N[C@@H](CCC(=O)O)C(=O)N[C@H](C(=O)N[C@H](C=O)CC(=O)O)C(C)C [DEVD-CHO],8.97,–
CC(C)(C)C(=O)Oc1ccc(S(=O)(=O)Nc2ccccc2C(=O)NCC(=O)O)cc1 [Sivelestat],–,8.32

# pIC50: −log10 of the molar value.
